The assay relates to PC9. As to the kind of experiment: mass response relative to vehicle control (EMD distance of treated vs reference mass distribution minus control baseline) (% of mean reference cell mass); higher = larger drug-induced change in single-cell mass distribution (stronger response). Here is the method: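 Cancer cell lines were treated in vitro with drugs at the listed doses (about 24 h; 0.25% DMSO vehicle). Single-cell buoyant mass was measured on suspended microchannel resonator instruments with CNN image curation, 2500 cells per condition. Mass response is the Earth Mover's Distance to vehicle-treated reference cells as % of mean reference mass.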

± gives the uncertainty stated by the source.

`O=P1(N(CCCl)CCCl)NC(SCCS(=O)(=O)O)CCO1` (centres undefined) [Mafosfamide]: the mass response is -1.92 ± 4.9 (0.1 µM), 4.71 ± 9 (1 µM), 12 ± 10 (10 µM) and 27.7 ± 8 (50 µM).
